The list shows a part of the results, in another mix than the full data. Activity calls are given as the source filed them. No stated cut-off is given here; in the data, active means inhibition above about 40%; inconclusive means no clear call, values can overlap the other calls; inactive means below that.

The test system of this assay is 7,8-diaminopelargonic acid synthase BioA (Mycobacterium tuberculosis). As to the kind of experiment: M. tuberculosis BioA enzyme inhibitors, primary screen, biochemical, plate reader, single point, HTS (AID 602481). The following applies: purified M. tuberculosis BioA enzyme, at 9.99 µM, hits give high values.
Broadly, the inhibition is the relative decrease from the control value, in per cent. For `O=[N+]([O-])c1cccc(NC2=NCC(CBr)S2)c1` (configuration not stated), the inhibition was inactive: 0.425%. Under `O=P1(N(CCCl)CCCl)OCCCS1` (configuration not stated) stands inactive: -2.34%; under `O=C(Nc1cc([As](=O)(O)O)ccc1O)c1ccccc1`, inactive: -1.72%. The same measure for `C[N+]1=C2C=CC=CC=C2SC12C([N+](=O)[O-])=CC([N+](=O)[O-])=C[C-]2[N+](=O)[O-]` (configuration not stated): inactive: 1.26%; for `Nc1ccc([As](=O)(O)c2ccc(N)cc2)cc1`: inactive: -1.76%; for `c1cc(-c2nn[nH]n2)ccc1-c1nn[nH]n1`: inactive: 3.09%. Under `CC1CCN(C(=O)Oc2c(Cl)cc(Cl)c3cccnc23)CC1` stands inactive: 2.03%; under `CC(C)c1nc(Nc2ccccc2)n(P(=O)(N(C)C)N(C)C)n1`, inactive: 0.151%; under `COc1ccc(C2=NCC(CBr)S2)cc1` (configuration not stated), inactive: -0.181%. With `CCc1nc2c(n1)c1c(non1O)c1c2no[n+]1[O-]`, the inhibition is inactive: -0.195%. Under `CC(=O)N1C2C3N(C(C)=O)C1C1N(C(C)=O)C(C(N1C(C)=O)N3C(C)=O)N2C(C)=O` stands inactive: -1.52%; under `O=[N+]([O-])c1cccc2n[nH]nc12`, inactive: -0.0945%; under `O=C(NC(Sc1ccncn1)C(Cl)(Cl)Cl)c1ccccc1` (configuration not stated), inactive: -0.277%.

As for `Oc1ccccc1CNc1ccccn1`, the inhibition was inactive: 0.491%. Under `CC(C)CC(=O)NC(Sc1ccc(Cl)cc1)C(Cl)(Cl)Cl` (configuration not stated) stands inactive: 0.077%. The same measure for `Cc1ccc(N/C(=N/P(=O)(N2CCOCC2)N2CCOCC2)N2CCOCC2)cc1`: inactive: -1.5%. On to `CN(C(=O)Cc1ccc(Cl)c(Cl)c1)[C@H]1CCCC[C@H]1N1CCCC1`, for which the inhibition was inactive: -1.17%.

With `Clc1ccc(Cl)c(NC2=NCC(CBr)S2)c1` (configuration not stated), the inhibition was inactive: -0.408%.

Turning to `CN1CCCC(OC(=O)C(c2ccccc2)c2ccccc2)C1` (configuration not stated), the inhibition was inactive: -0.531%.

`Cc1ccc(OP(=O)(Nc2nccs2)Oc2ccc(C)cc2)cc1`: the inhibition is inactive: 0.253%. Consider `Nc1cccc2ccc([As](=O)(O)O)cc12`, for which the inhibition was inactive: -1.25%. As for `CN(C)P(=O)(N(C)C)n1c(Nc2ccccc2)nnc1-c1ccccc1`, the inhibition is inactive: -0.253%.

Consider `CCCC1OP(N)(=O)OCC1CC` (configuration not stated), for which the inhibition is inactive: -1.16%.

Consider `O=C(O)c1ccccc1[As](=O)(O)O`, for which the inhibition was inactive: 0.298%.

Turning to `CC(=O)Nc1ccc([As](=O)(O)O)cc1`, the inhibition was inactive: -1.79%.

Take `CN(C(=O)Cc1ccc(Cl)c(Cl)c1)[C@H]1CCCC[C@@H]1N1CCCC1`: the inhibition is inactive: -0.746%. With `CCOP(=O)(Nc1ccccc1)OCC`, the inhibition is inactive: -0.51%.

For the origin of these results see PubChem BioAssay AID602481 (Broad Institute, 2012).
